Data as given in PubChem BioAssay AID1259414 (Drosophila RNAi Screening Center, 2018)

Assay: 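Host factors increasing or decreasing Wolbachia levels in cultured fly cells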 (primary screen)
System: Drosophila JW18 cells infected with Wolbachia
Knock-down reagent: long dsRNA against Drosophila genes, 0.25 µg dsRNA per well of a 384-well plate
Time to read-out: 5 days
Treatment: cells persistently infected with Wolbachia before knock-down; no added drug
Read-out: 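Automated imaging of bacterial rRNA staining divided by host cell count, reported as plate-normalised robust z-score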
Scale: Wolbachia per cell robust z: higher = more Wolbachia per host cell than the plate typical
Hit rule: 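Active if absolute robust z reaches 1.5 in two or more of three replicates, leaving out multi- or no-target dsRNAs, genes unexpressed in JW18 and A1 wells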
In all, the deposit lists about 24,000 reagents; this is an unselected part of those with a known target gene and a result. In the full data, about 1,210 (5%) were called active. 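Inactive calls also include excluded dsRNAs with several or no targets, genes unexpressed in JW18, and well A1, regardless of score.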 Entries without a mark were called inactive.

For CG15894 [DRSC18098] the deposit lists Wolbachia per cell robust z, rep 1 = 0.944; Wolbachia per cell robust z, rep 2 = -0.136; Wolbachia per cell robust z, rep 3 = -1.12.
With knock-down of CG10183 [DRSC14203] the results were Wolbachia per cell robust z, rep 1 = -2.15; Wolbachia per cell robust z, rep 2 = -0.0694; Wolbachia per cell robust z, rep 3 = 0.65.
After knock-down of CG10183 [DRSC25343] the results were Wolbachia per cell robust z, rep 1 = -0.731; Wolbachia per cell robust z, rep 2 = -0.412; Wolbachia per cell robust z, rep 3 = -0.908.
For CG8665 [DRSC03098] the deposit lists Wolbachia per cell robust z, rep 1 = -1.2; Wolbachia per cell robust z, rep 2 = -1.5; Wolbachia per cell robust z, rep 3 = -4.92.
After knock-down of Wdr82 (WD repeat domain 82) [DRSC02595], the record shows Wolbachia per cell robust z, rep 1 = -0.213; Wolbachia per cell robust z, rep 2 = 0.339; Wolbachia per cell robust z, rep 3 = -0.701.
Depletion of Wdr82 (WD repeat domain 82) [DRSC21723] came out at: Wolbachia per cell robust z, rep 1 = -2.6 (active); Wolbachia per cell robust z, rep 2 = -0.899; Wolbachia per cell robust z, rep 3 = -1.54.
Silencing of ArgRS (Arginyl-tRNA synthetase) [DRSC20138] resulted in: Wolbachia per cell robust z, rep 1 = 0.715; Wolbachia per cell robust z, rep 2 = -2.78; Wolbachia per cell robust z, rep 3 = -1.09.
Against dnc (dunce) [DRSC17759] the deposit lists Wolbachia per cell robust z, rep 1 = -3.56; Wolbachia per cell robust z, rep 2 = -0.747; Wolbachia per cell robust z, rep 3 = -1.06.
dnc (dunce) [DRSC17911] showed Wolbachia per cell robust z, rep 1 = -0.446; Wolbachia per cell robust z, rep 2 = -0.169; Wolbachia per cell robust z, rep 3 = -0.633.
After knock-down of dnc (dunce) [DRSC18764], the record shows Wolbachia per cell robust z, rep 1 = 0.266; Wolbachia per cell robust z, rep 2 = 0.663; Wolbachia per cell robust z, rep 3 = -2.51.
Against dnc (dunce) [DRSC40675] the deposit lists Wolbachia per cell robust z, rep 1 = -1.28; Wolbachia per cell robust z, rep 2 = -1.02; Wolbachia per cell robust z, rep 3 = -1.11.
For CG3097 [DRSC18275], the entry reads Wolbachia per cell robust z, rep 1 = -0.348; Wolbachia per cell robust z, rep 2 = -0.946; Wolbachia per cell robust z, rep 3 = -4.71.

3 of these entries, reformatted:
CG15894 [DRSC18098]
- Wolbachia per cell robust z, rep 1: 0.944
- Wolbachia per cell robust z, rep 2: -0.136
- Wolbachia per cell robust z, rep 3: -1.12

CG10183 [DRSC14203]
- Wolbachia per cell robust z, rep 1: -2.15
- Wolbachia per cell robust z, rep 2: -0.0694
- Wolbachia per cell robust z, rep 3: 0.65

CG10183 [DRSC25343]
- Wolbachia per cell robust z, rep 1: -0.731
- Wolbachia per cell robust z, rep 2: -0.412
- Wolbachia per cell robust z, rep 3: -0.908

The list goes on.
After knock-down of CG14567 [DRSC11728], the screen gave Wolbachia per cell robust z, rep 1 = -0.236; Wolbachia per cell robust z, rep 2 = 0.515; Wolbachia per cell robust z, rep 3 = 0.00767.
Against CG7745 [DRSC23103], the entry reads Wolbachia per cell robust z, rep 1 = 0.111; Wolbachia per cell robust z, rep 2 = -2.07; Wolbachia per cell robust z, rep 3 = 1.63.
With knock-down of CG7745 [DRSC29591] the results were Wolbachia per cell robust z, rep 1 = -4.82 (active); Wolbachia per cell robust z, rep 2 = -0.312; Wolbachia per cell robust z, rep 3 = -3.01.
With knock-down of Ric (Ras-related protein interacting with calmodulin) [DRSC07532], the screen gave Wolbachia per cell robust z, rep 1 = 0.405; Wolbachia per cell robust z, rep 2 = 0.292; Wolbachia per cell robust z, rep 3 = 1.14.
Ric (Ras-related protein interacting with calmodulin) [DRSC26601] gave Wolbachia per cell robust z, rep 1 = -2.05 (active); Wolbachia per cell robust z, rep 2 = -2.76; Wolbachia per cell robust z, rep 3 = 0.239.
After knock-down of CG34204 [DRSC38895], the record shows Wolbachia per cell robust z, rep 1 = 0.482; Wolbachia per cell robust z, rep 2 = 0.46; Wolbachia per cell robust z, rep 3 = 0.178.
After knock-down of fzr (fizzy-related) [DRSC18781], the screen gave Wolbachia per cell robust z, rep 1 = 0.838; Wolbachia per cell robust z, rep 2 = 1.23; Wolbachia per cell robust z, rep 3 = 0.841.
For fzr (fizzy-related) [DRSC28236], the values are Wolbachia per cell robust z, rep 1 = 1.16; Wolbachia per cell robust z, rep 2 = 1.18; Wolbachia per cell robust z, rep 3 = 0.581.
Snap29 (Synaptosomal-associated protein 29kDa) [DRSC04721] gave Wolbachia per cell robust z, rep 1 = 0.13; Wolbachia per cell robust z, rep 2 = -0.87; Wolbachia per cell robust z, rep 3 = -0.112.
Knock-down of Snap29 (Synaptosomal-associated protein 29kDa) [DRSC24658] gave: Wolbachia per cell robust z, rep 1 = -0.119; Wolbachia per cell robust z, rep 2 = 0.00109; Wolbachia per cell robust z, rep 3 = -0.295.
Depletion of dgt2 (dim gamma-tubulin 2) [DRSC02548] came out at: Wolbachia per cell robust z, rep 1 = 1.16; Wolbachia per cell robust z, rep 2 = 1.37; Wolbachia per cell robust z, rep 3 = 1.45.
For dgt2 (dim gamma-tubulin 2) [DRSC29741], the values are Wolbachia per cell robust z, rep 1 = 0.439; Wolbachia per cell robust z, rep 2 = -0.797; Wolbachia per cell robust z, rep 3 = 0.535.
